Reference: PubChem BioAssay AID1259414 (Drosophila RNAi Screening Center, 2018)
In all, the deposit lists about 24,000 reagents; below is an unselected part of those with a known target gene and a result. In the full data, about 1,210 (5%) were called active. 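Inactive calls also include excluded dsRNAs with several or no targets, genes unexpressed in JW18, and well A1, regardless of score.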 A plus sign joins genes that one reagent is predicted to hit.

Test: 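Genome-wide screen for host control of endosymbiont load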 (primary screen)
Cell system: Drosophila JW18 cells infected with Wolbachia
Reagents: long dsRNA against Drosophila genes, 0.25 µg dsRNA per well of a 384-well plate
Duration: 5 days
Conditions: cells persistently infected with Wolbachia before knock-down; no added drug
Measurement: 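Imaged fluorescence in situ signal for Wolbachia 23S rRNA per DAPI-counted host cell, given as a robust z-score within each plate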
Scale: Wolbachia per cell robust z: higher = more Wolbachia per host cell than the plate typical
Hit rule: 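Active if absolute robust z reaches 1.5 in two or more of three replicates, leaving out multi- or no-target dsRNAs, genes unexpressed in JW18 and A1 wells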

no.	target	amplicon	Wolbachia per cell robust z, rep 1	Wolbachia per cell robust z, rep 2	Wolbachia per cell robust z, rep 3	call
1	CG1999	DRSC18199	0.676	-0.684	-0.509	inactive
2	CG1999	DRSC29137	-0.449	0.954	0.1	inactive
3	Caper	DRSC02137	1.83	0.516	0.596	inactive
4	Sem1	DRSC02282	-0.685	-0.0389	0.112	inactive
5	Sem1	DRSC30061	-0.0786	1.16	-0.0321	inactive
6	CG2124	DRSC18208	-0.726	-0.142	-4.7	inactive
7	Ir93a	DRSC15212	-0.558	0.831	-1.67	inactive
8	Ir93a	DRSC15213	-4.55	-0.898	-1.22	inactive
9	Ir93a	DRSC28149	-0.0566	0.754	-3.07	inactive
10	DIP-epsilon	DRSC00932	0.222	0.0916	-0.348	inactive
11	DIP-epsilon	DRSC02313	-1.02	0.842	-0.359	inactive
12	DIP-epsilon	DRSC26835	-1.95	0.109	-0.827	inactive
13	CG31639	DRSC00910	-0.83	-1.35	-2.67	inactive
14	CG31639	DRSC28271	0.408	1.09	0.467	inactive
15	dpr15	DRSC12891	0.953	1.35	-0.537	inactive
16	dpr15	DRSC14187	0.253	0.326	0.647	inactive
17	dpr15	DRSC14188	0.36	-0.0241	0.41	inactive
18	CG7656	DRSC10900	0.0898	1.49	0.107	inactive
19	CG33947	DRSC37775	0.413	-0.588	0.192	inactive
20	CG33947	DRSC39123	-0.32	-3.37	-1.05	inactive
21	SNCF	DRSC10115	-1.48	0.0565	-0.918	inactive
22	Osi19	DRSC12569	-0.222	-2.77	-7.63	inactive
23	CG10465	DRSC04848	-0.113	1.1	1.03	inactive
24	Ube4B	DRSC03277	-0.105	-0.1	-0.829	inactive
25	jar	DRSC16974	-1.18	0.52	-0.284	inactive
26	jar	DRSC40715	-1.7	0.178	0.841	inactive
27	CG4364	DRSC02742	-0.455	0.779	1.14	inactive
28	CG4364	DRSC29531	-0.417	-1.65	-0.327	inactive
29	CG10560	DRSC14256	-0.0468	0.655	-1.77	inactive
30	CG32640 + CG32641	DRSC22885	1.1	-0.694	0.631	inactive
31	CG15646	DRSC19682	-0.00669	0.554	0.107	inactive
32	CG15646	DRSC41286	0.725	-0.938	0.485	inactive
33	Cpr73D	DRSC11084	-1.37	0.551	0.242	inactive
34	Cpr73D	DRSC26591	0.6	-0.673	0.291	inactive
35	CG32054	DRSC10684	0.539	-0.828	0.627	inactive
36	CG32054	DRSC24449	-0.368	0.0588	-0.449	inactive
37	CAHbeta	DRSC14449	-1.95	-0.0803	-0.735	inactive
38	CG1354	DRSC17902	0.67	-0.422	0.44	inactive
39	ab	DRSC01162	0.486	0.833	0.329	inactive
40	ab	DRSC23151	-0.234	-2.17	-1.09	inactive
41	ab	DRSC23179	0.307	1.13	0.328	inactive
42	Sp1	DRSC17622	0.358	-0.293	0.893	inactive
43	Sp1	DRSC18717	0.129	-0.702	0.0434	inactive
44	Sp1	DRSC23810	0.539	-0.933	0.152	inactive
45	Hnf4	DRSC03344	-0.851	0.603	0.177	inactive
46	Hnf4	DRSC26864	0.395	0.85	-6.4	inactive

Individual results from the entries so far.
For “Wolbachia per cell robust z, rep 1”, Cpr73D [DRSC26591] has 0.6
Entry of Caper [DRSC02137] under “Wolbachia per cell robust z, rep 1”: 1.83
